Results of unrelated studies side by side (data: NIAID ChemDB).

Common to all: growth or infection tests; species: HIV-1; measure: EC95

ECn: concentration that inhibits the pathogen or its effect by n%. Blank or dashed fields: not listed here. Conditions beyond the fields shown may differ between rows. Two numbers with a dash give a range or band.

structure | strain | mutations | setting | read by | cell line | value
O=S(Cc1[nH]c2ccccc2c1Sc1ccccc1)c1ccccc1 | IIIB | - | - | p24 / ELISA | MT-4 | 0.4 µM
O=C(N[C@H]1c2ccccc2OC[C@H]1O)[C@H](Cc1nnco1)C[C@H](O)CN1CCN(Cc2ccc(-c3ccc(Cl)cc3)o2)C[C@H]1C(=O)NCC(F)(F)F | NL4-3 WT | - | - | p24 | MT-4 | 0.063 µM
Cc1ccnc2c1NC(=O)c1cccnc1N2C1CC1 | - | - | - | syncytia | MT-2 | 0.004–0.09 µM
CC(=O)N(C)C1CCn2c1nc(C(=O)NCc1ccc(F)cc1)c(O)c2=O | IIIB | - | 10% FBS | p24 / ELISA | MT-4 | >1 µM
CNC(=O)c1[nH]c2ccccc2c1Sc1ccccc1 | IIIB | - | - | p24 / ELISA | MT-4 | 0.8 µM
CC1CCC(c2nc(C(=O)NCc3ccc(F)cc3)c(O)c(=O)n2C)N1C | IIIB | - | 10% FBS | p24 / ELISA | MT-4 | >1 µM
Nc1ccn([C@H]2CC[C@@H](CO)O2)c(=O)n1 | RF | - | - | cytopathic effect / MTT | CEM + CEM-SS | 142 µM
CCc1cc(CCN2C(=O)c3ccccc3C2=O)c(=O)[nH]c1C | IIIB | - | - | p24 | H9 | 40 µM
Cc1nnc(C[C@H](C[C@H](O)CN2CCN(C(C)(C)c3ncc(-c4ccc(F)cc4)o3)C[C@H]2C(=O)NCC(F)(F)F)C(=O)N[C@H]2c3ccccc3OC[C@H]2O)o1 | NL4-3 WT | - | - | p24 | MT-4 | 0.125 µM
Cc1cc(SC2=C(O)CC(CCc3cccc(O)c3)(C3CCCC3)OC2=O)c(C(C)(C)C)cc1CO | - | - | - | cytopathic effect / XTT | CEM | <0.3 µM
CCc1cc(NCc2nc3c(Cl)ccc(Cl)c3o2)c(=O)[nH]c1C | IIIB | - | - | p24 | H9 | 0.2 µM
Cc1cccc(C)c1-n1nnnc1SCC(=O)Nc1ccccc1Cl | - | - | - | p24 | MT-4 | <10 µM
CCNC(=O)N1CCN(C)C(c2nc(C(=O)NCc3ccc(F)cc3)c(O)c(=O)n2C)C1 | IIIB | - | 10% FBS | p24 / ELISA | MT-4 | 0.25 µM
COC(=O)c1[nH]c2ccccc2c1Sc1ccccc1 | IIIB | - | - | p24 / ELISA | MT-4 | >3 µM
O=C1Nc2ccc(Cl)cc2C(C#Cc2nccs2)(C2CC2)N1 | IIIB | - | - | - | MT-4 | 0.012 µM
CN1CCS(=O)CC1c1nc(C(=O)NCc2ccc(F)cc2)c(O)c(=O)n1C | IIIB | - | 50% human serum | p24 / ELISA | MT-4 | >1 µM
Cc1cccc(C)c1-n1nnnc1SCC(=O)Nc1ccccc1[N+](=O)[O-] | - | - | - | p24 | MT-4 | <10 µM
CC(C)CN(C[C@@H](O)[C@H](Cc1ccccc1)NC(=O)[C@H](CC(N)=O)NC(=O)c1ccc2ccccc2n1)C(=O)NC(C)(C)C | NL4-3 | PR-L10R M46I L63P | - | p24 | MT-4 | 0.2 µM
Cc1cn([C@H]2C[C@H](N=[N+]=[N-])[C@@H](CO)O2)c(=O)[nH]c1=O | IIIB | - | - | p24 / ELISA | MT-4 | 0.025 µM
CN(C[C@@H](CCN1CCC2(CC1)CS(=O)c1ccccc12)c1cccc(Cl)c1)S(=O)(=O)c1ccccc1 | M-tropic YU-2 | - | - | p24 / antigen | PBMC | 0.8 µM
Cc1cc(C)c(-n2nnnc2SCC(=O)Nc2ccc(Cl)nc2Cl)c(C)c1 | - | - | - | p24 | MT-4 | <10 µM
Nc1ccn([C@H]2CC[C@@H](CO)O2)c(=O)n1 | RF | - | - | cytopathic effect / MTT | CEM + CEM-SS | 142 µM
CC(=O)N1CCOCC1c1nc(C(=O)NCc2ccc(F)cc2)c(O)c(=O)n1C | IIIB | - | 50% human serum | p24 / ELISA | MT-4 | >1 µM
CCCc1nnc(C[C@H](C[C@H](O)CN2CCN(C(C)(C)c3ncc(-c4ccc(F)cc4)o3)C[C@H]2C(=O)NCC(F)(F)F)C(=O)N[C@H]2c3ccccc3OC[C@H]2O)o1 | K-60 Clinical isolate | PR-L10I M46I I54V Q58E L63P I64V V77I V82F I84V L90M I93L | - | p24 | MT-4 | 0.016 µM
CC(C)(C)NC(=O)[C@@H]1CN(C(C)(C)c2cc3cnccc3o2)CCN1C[C@@H](O)C[C@@H](Cc1ccccc1)C(=O)N[C@H]1c2ccccc2C[C@H]1O | Q-60C(PR-L10I S37N R41K M46I I54V I62V L63P A71V V77I V82A L90M I93L) | PR-L10I S37N R41K M46I I54V I62V L63P A71V V77I V82A L90M I93L | - | - | - | >1 µM
CN(C[C@@H](CCN1CCC2(CC1)CS(=O)(=O)c1ccccc12)c1cccc(Cl)c1)S(=O)(=O)c1ccccc1 | M-tropic YU-2 | - | - | p24 / antigen | PBMC | 3 µM
Cc1cc(C)c(-n2nnnc2SCC(=O)Nc2cccc(Cl)c2Cl)c(C)c1 | - | - | - | p24 | MT-4 | <10 µM
CC(C)[C@H](C(=O)O)N1C[C@H](CN2CCC(c3ccc(F)cc3)CC2)[C@@H](c2ccccc2)C1 | BaL | - | - | - | PBMC | >3 µM
O=C(NCc1ccc(F)cc1)c1nc[nH]c(=O)c1O | IIIB | - | 10% FBS | p24 / ELISA | MT-4 | >10 µM
CCc1cc(NCc2nc3c(Cl)ccc(Cl)c3o2)c(=O)[nH]c1C | IIIB | - | - | p24 / ELISA | H9 | 0.2 µM
CC(C)(C)NC(=O)[C@@H]1CN(Cc2cc3cnccc3o2)CCN1C[C@@H](O)C[C@@H](Cc1ccccc1)C(=O)N[C@H]1c2ccccc2C[C@H]1O | NL4-3 | - | - | - | MT-4 | 0.015 µM
CN1CCC[C@H]1c1nc(C(=O)NCc2ccc(F)cc2)c(O)c(=O)n1C | IIIB | - | 50% human serum | p24 / ELISA | MT-4 | >1 µM
CN(C)c1ccc(-n2nnnc2SCC(=O)Nc2ccccc2Cl)cc1 | - | - | - | p24 | MT-4 | <10 µM
Cc1nnc(C[C@H](C[C@H](O)CN2CCN(C(C)(C)c3ncc(-c4ccc(Cl)cc4)o3)C[C@H]2C(=O)NCC(F)(F)F)C(=O)N[C@H]2c3ccccc3OC[C@H]2O)o1 | K-60 Clinical isolate | PR-L10I M46I I54V Q58E L63P I64V V77I V82F I84V L90M I93L | - | p24 | MT-4 | 0.031 µM
CC(C)=CCN1Cc2cc(Cl)cc3[nH]c(=S)n(c23)C[C@@H]1C | - | RT-D67N K70R T215Y K219Q | - | - | MT-4 | 0.4 µM
CC(C)(C)NC(=O)[C@@H]1C[C@@H]2CCCC[C@@H]2CN1C[C@@H](O)[C@H](Cc1ccccc1)NC(=O)[C@H](CC(N)=O)NC(=O)c1ccc2ccccc2n1 | NL4-3 | PR-L10R M46I L63P 184V | - | p24 | MT-4 | 0.1 µM
Cc1cc(C)c(-n2nnnc2SCC(=O)Nc2cc(C)on2)c(C)c1 | - | - | - | p24 | MT-4 | <10 µM
CC(=O)N[C@H]1C[C@@H](c2nc(C(=O)NCc3ccc(F)cc3)c(O)c(=O)n2C)N(C)C1 | IIIB | - | 50% human serum | p24 / ELISA | MT-4 | >1 µM
CN(C)c1ccc(-n2nnnc2SCC(=O)Nc2ccccc2Cl)c2ccccc12 | - | - | - | p24 | MT-4 | <10 µM
O=C1Nc2ccc(Cl)cc2C(C#Cc2ccccn2)(C2CC2)N1 | IIIB | - | - | - | MT-4 | 0.03 µM
O=C(O)[C@@H](CC1CCC1)N1C[C@H](CN2CCC(CCCc3ccccc3)CC2)[C@@H](c2ccccc2)C1 | BaL | - | - | - | PBMC | 0.008 µM
CC(Sc1nnnn1-c1cccc2ccccc12)C(=O)Nc1ccccc1Cl | - | - | - | p24 | MT-4 | <10 µM

For reference, 4 entries again:

structure | strain | mutations | setting | read by | cell line | value
CC(Sc1nnnn1-c1cccc2ccccc12)C(=O)Nc1ccccc1Cl | - | - | - | p24 | MT-4 | <10 µM
CN(C)c1ccc(-n2nnnc2SCC(=O)Nc2ccccc2Cl)c2ccccc12 | - | - | - | p24 | MT-4 | <10 µM
CCCc1nnc(C[C@H](C[C@H](O)CN2CCN(C(C)(C)c3ncc(-c4ccc(F)cc4)o3)C[C@H]2C(=O)NCC(F)(F)F)C(=O)N[C@H]2c3ccccc3OC[C@H]2O)o1 | K-60 Clinical isolate | PR-L10I M46I I54V Q58E L63P I64V V77I V82F I84V L90M I93L | - | p24 | MT-4 | 0.016 µM
Cc1cn([C@H]2C[C@H](N=[N+]=[N-])[C@@H](CO)O2)c(=O)[nH]c1=O | IIIB | - | - | p24 / ELISA | MT-4 | 0.025 µM